Anti-infective test results gathered from many reports (values: NIAID ChemDB through PubChem).

ECn: concentration that inhibits the pathogen or its effect by n%.

compound	protein	dose	cells	measure	agent	method	strain	test	result
N=c1c2ccccc2nc2n1CCCCCCC2		12.5 µg/mL		inhibition	Mycobacterium tuberculosis	BACTEC	H37Rv	culture	1%
Nc1ccc(C(=O)O)c(S)c1				MIC	Mycobacterium tuberculosis		H37Rv	culture	>100 µg/mL
O=C(Nc1ccc2cc(S(=O)(=O)[O-])cc(S(=O)(=O)[O-])c2c1)c1ccccc1		5 µg/mL	Human amnion AV3 cells	inhibition	Herpes simplex virus	cytopathic effect		culture	15%
C#CC[C@@H](C(=O)N[C@H](/C=C/C(=O)OCC)C[C@@H]1CCNC1=O)n1cccc(NC(=O)c2cc(C)on2)c1=O			H1-HELA	EC50	Rhinovirus	cytopathic effect / XTT	Clinical isolate 15 (serotype 23)	culture	0.059 µM
Nc1ccc(C(=O)Nc2ccc3ccccc3c2)cc1				MIC	Mycobacterium tuberculosis		H37Rv	culture	>100 µg/mL
COc1ccc(N2CCN(c3cncc(-c4ccccc4CO)n3)CC2)cc1OC	UL97 kinase	10 µM		inhibition	Cytomegalovirus			target	>15%
C1=NCCCCCCCN=Cc2ccccc2NCCNc2ccccc21				MIC bound	Mycobacterium tuberculosis	BACTEC	H37Rv	culture	>12.5 µg/mL
Fc1ccc(N2CCCCC2)c(NC(=S)c2ccncc2)c1	PDGFRbeta	10 µM		inhibition		kinase activity		host protein	-2%
COc1ccc(-c2oc3cc(O)cc(O)c3c(=O)c2OC)cc1				MIC bound	Mycobacterium tuberculosis	BACTEC	H37Rv	culture	>12.5 µg/mL
COc1ccc(C2Oc3c(I)cccc3C(=O)C2O)cc1		12.5 µg/mL		inhibition	Mycobacterium tuberculosis		H37Rv	culture	6%
CCOc1ccc(/C=C/C(=O)c2sc(NNC(C)=O)nc2C)cc1		6.25 µg/mL		inhibition	Mycobacterium tuberculosis	resazurin	H37Rv	culture	-11%
COc1ccc(C2CC(=O)c3c(cc(OC)c(-c4c(OC)cc5c(c4OC)C(=O)CC(c4ccc(OC)cc4)O5)c3OC)O2)cc1				EC50	Mycobacterium tuberculosis			culture	>12.5 µg/mL
OC12c3ccccc3C1(N1CCOCC1)CCCCC21OCCCO1		12.5 µg/mL		inhibition	Mycobacterium tuberculosis	BACTEC	H37Rv	culture	15%
O=S(=O)([O-])c1ccc2c(NS(=O)(=O)c3ccccc3)cc(S(=O)(=O)[O-])cc2c1		5 µg/mL	Human amnion AV3 cells	inhibition	Adenovirus	cytopathic effect	TYPE 3	culture	0%
O=C(Nc1nnc(NC2CCCc3ccccc32)s1)c1ccc2c(c1)C(=O)OC2=O	Polymerase			IC50	Human cytomegalovirus			target	<25 µM
CCCOC(=O)c1cc(O)c(O)c(O)c1.O				MIC	Mycobacterium tuberculosis		H37Rv	culture	>100 µg/mL
CCCCCCCCCCCNc1nnc(NC(=O)c2ccc(S(=O)(=O)F)cc2)s1	Polymerase			IC50	Human cytomegalovirus			target	<25 µM
O=C(O)c1c(Cl)cc(Cl)c(-c2c(Cl)cc(Cl)c(C(=O)O)c2Cl)c1Cl				MIC	Mycobacterium tuberculosis		H37Rv	culture	>100 µg/mL
CC(=O)c1cccc(-c2cncc(N3CCN(c4ccccc4F)CC3)n2)c1	UL97 kinase	1 µM		inhibition	Cytomegalovirus			target	<50%
COc1ccc2[nH]c(=O)cc(C)c2c1				MIC	Mycobacterium tuberculosis		H37Rv	culture	>100 µg/mL
CC(C)c1cc(C(C)C)c(C(=O)Nc2nnc(NCCNc3ccccc3)s2)c(C(C)C)c1	Polymerase			IC50	Human cytomegalovirus			target	>25 µM
COc1ccc(C2Oc3cc(F)ccc3C(=O)C2O)cc1				EC50	Mycobacterium tuberculosis		H37Rv	culture	12.5 µg/mL
CN(C)C1C(=O)C(C(N)=O)=C(O)C2(O)C(=O)C3=C(O)c4c(O)cccc4C(C)(O)C3CC12		12.5 µg/mL		inhibition	Mycobacterium tuberculosis	BACTEC	H37Rv	culture	54%
O=c1[nH]c2ccc([N+](=O)[O-])cc2[nH]1				MIC	Mycobacterium tuberculosis		H37Rv	culture	>100 µg/mL
O=C(Nc1nnc(NCCCNC2CCCCC2)s1)c1cc2ccccc2s1	Polymerase			IC50	Human cytomegalovirus			target	<25 µM
Cl.NCc1cccc2ccccc12				MIC	Mycobacterium tuberculosis		H37Rv	culture	125 µg/mL
Cc1ccc(S(=O)(=O)N(CCOc2c3occc3cc3ccc(=O)oc23)CCN(CCN(CCOc2c3occc3cc3ccc(=O)oc23)S(=O)(=O)c2ccc(C)cc2)S(=O)(=O)c2ccc(C)cc2)cc1		12.5 µg/mL		inhibition	Mycobacterium tuberculosis	BACTEC	H37Rv	culture	5%
O=C(O)c1ccncc1C(=O)O				MIC	Mycobacterium tuberculosis		H37Rv	culture	>100 µg/mL
O=C(Nc1nnc(NCC2CCCO2)s1)c1cc2ccccc2s1	Polymerase			IC50	Human cytomegalovirus			target	>25 µM
Nc1cccc(/C=C/C(=O)c2ccccc2O)c1		12.5 µg/mL		inhibition	Mycobacterium tuberculosis			culture	11%
O=CNNC(=O)CN1C(=O)c2ccccc2C1=O		12.5 µg/mL		inhibition	Mycobacterium tuberculosis	BACTEC	H37Rv	culture	5%
NC(N)=Nc1ccc(C(=O)O)cc1				MIC	Mycobacterium tuberculosis		H37Rv	culture	>100 µg/mL
CCOc1ccc(C(C2=C(O)c3ccccc3C(=O)C2=O)C2=C(O)c3ccccc3C(=O)C2=O)cc1OC				MIC bound	Mycobacterium tuberculosis	BACTEC	H37Rv	culture	>12.8 µg/mL
Cc1cc(S(N)(=O)=O)ccc1Cl				MIC	Mycobacterium tuberculosis		H37Rv	culture	>100 µg/mL
Nn1c(NNC(=O)C(=O)Nc2cc(Cl)c(Cl)cc2Cl)n[nH]c1=S		12.5 µg/mL		inhibition	Mycobacterium tuberculosis	BACTEC	H37Rv	culture	-25%
COc1cc(C[C@H](C)[C@H](C)Cc2ccc(O)c(O)c2)ccc1O				MIC80	Candida albicans	broth dilution	CCC 128-2000	culture	31.25 µg/mL
S=C(S)Nc1ccc(Cl)cc1				MIC	Mycobacterium tuberculosis		TAC-R	culture	>12.5 µg/mL
O=S(=O)([O-])c1cc(NS(=O)(=O)c2ccccc2)c2c(S(=O)(=O)[O-])cc(S(=O)(=O)[O-])cc2c1		10 µg/mL	Human amnion AV3 cells	inhibition	Herpes simplex virus	cytopathic effect		culture	0%
CC(=O)Oc1cc2nc3ccccc3nc2cc1N(C)C				MIC bound	Mycobacterium tuberculosis	BACTEC	H37Rv	culture	≤12.5 µg/mL
OCC(O)CN(Cc1ccccc1)c1ccccc1				MIC	Mycobacterium tuberculosis		H37Rv	culture	100 µg/mL
Cc1cn(-c2ccccc2)c(C)c(C(=O)O)c1=O		12.5 µg/mL		inhibition	Mycobacterium tuberculosis	BACTEC	H37Rv	culture	23%
O=S(=O)([O-])c1ccc2c(O)cc(S(=O)(=O)[O-])cc2c1		5 µg/mL	Human amnion AV3 cells	inhibition	Adenovirus	cytopathic effect	TYPE 3	culture	0%
Nc1ccc(S(=O)(=O)NC(CS)C(=O)O)cc1				MIC	Mycobacterium tuberculosis		H37Rv	culture	>100 µg/mL
O=C(/C=C/c1ccccc1)c1cc(Br)ccc1O				EC50	Mycobacterium tuberculosis		H37Rv	culture	<12.5 µg/mL
Nc1ccc(S(=O)(=O)NO)cc1				MIC	Mycobacterium tuberculosis		H37Rv	culture	>100 µg/mL
COc1ccc(/C=C/C(=O)c2ccccc2F)cc1				EC50	Mycobacterium tuberculosis		H37Rv	culture	<12.5 µg/mL
O=C1C(c2[nH]c3ccc(S(=O)(=O)O)cc3c2O)=Nc2ccc(S(=O)(=O)O)cc21		5 µg/mL	Human embryonic lung cells	inhibition	Rhinovirus	cytopathic effect		culture	0%
c1ccc(C2CCN(c3cncc(-c4ccc5ccccc5c4)n3)CC2)cc1	UL97 kinase			IC50	Cytomegalovirus			target	<10 µM
O=S(=O)(O)c1cccc2c(O)cccc12		10 µg/mL	Human amnion AV3 cells	inhibition	Herpes simplex virus	cytopathic effect		culture	5%
N#CCC(=O)N(C(N)=O)c1ccccc1				MIC	Mycobacterium tuberculosis		H37Rv	culture	100 µg/mL
O=[N+]([O-])c1ccc(/C=N/N2CCNC2=S)o1				MIC	Mycobacterium tuberculosis	BACTEC	H37Rv	culture	≥12.5 µg/mL
Cc1cc(C)c(CC(=O)O)c(C)c1Br				MIC	Mycobacterium tuberculosis		H37Rv	culture	50 µg/mL
Cc1ccc(Nc2cc(=S)nc(N)[nH]2)cc1Cl				MIC bound	Mycobacterium tuberculosis	BACTEC	H37Rv	culture	>12.5 µg/mL
O=C(O)CNc1ccc(O)cc1				MIC	Mycobacterium tuberculosis		H37Rv	culture	>100 µg/mL
COc1cc2c(cc1C)n([O-])c(C)c(C(=O)C/C(=N\NC(=O)C[N+](C)(C)C)C(=O)Nc1cccc(Cl)c1C)[n+]2=O.[Cl-]		12.5 µg/mL		inhibition	Mycobacterium tuberculosis	BACTEC	H37Rv	culture	-12%
O=C(Nc1nnc(NCCCN2CCCC2=O)s1)c1cccc([N+](=O)[O-])c1	Polymerase			IC50	Human cytomegalovirus			target	<25 µM
CCO/N=C/c1ccc(OCCC2CCN(c3ccc(C)nn3)CC2)cc1			KB	EC50	Rhinovirus	neutral red	FEB (ICAM-1 receptor group 3)	culture	0.026 µM
CC1c2nc(N)nc(N)c2CN1C(=O)c1ccccc1		12.5 µg/mL		inhibition	Mycobacterium tuberculosis	BACTEC	H37Rv	culture	-13%
NC(=O)OCCOCCOC(N)=O				MIC	Mycobacterium tuberculosis		H37Rv	culture	>100 µg/mL
O=C(/C=C/c1ccc([O-])c(C[O-])c1)c1cccc(O)c1		12.5 µg/mL		inhibition	Mycobacterium tuberculosis			culture	53%
O=c1n(C2CCCCC2)c(=C(Cl)Cl)c(=C(Cl)Cl)n1C1CCCCC1				MIC bound	Mycobacterium tuberculosis	BACTEC	H37Rv	culture	>12.5 µg/mL
COc1ccc2cc(-c3cncc(N4CCN(c5ccc(OC)c(OC)c5)CC4)n3)ccc2c1	UL97 kinase	1 µM		inhibition	Cytomegalovirus			target	<50%
CC(C)C1(Cl)CCC2C3(C)CCCC(C)(C(=O)O)C3CC(Cl)C2(Cl)C1Cl		12.5 µg/mL		inhibition	Mycobacterium tuberculosis	BACTEC	H37Rv	culture	19%
O=S(=O)(Nc1nccs1)c1cccnc1				MIC	Mycobacterium tuberculosis		H37Rv	culture	>100 µg/mL
Fc1ccc(-c2cncc(N3CCN(c4ccccc4)CC3)n2)cc1	UL97 kinase	1 µM		inhibition	Cytomegalovirus			target	<50%
CC(C)C(=O)c1ccc(Cl)cc1				MIC	Mycobacterium tuberculosis		H37Rv	culture	>100 µg/mL
Cc1cccc(-c2cncc(N3CCN(c4ccc(F)cc4)CC3)n2)c1	UL97 kinase	10 µM		inhibition	Cytomegalovirus			target	>15%
COc1cc2oc3cc(C)oc(=O)c3c2cc1OC				MIC bound	Mycobacterium tuberculosis	BACTEC	H37Rv	culture	>12.5 µg/mL
CCCCN1CCCC(COC(=O)c2ccc([N+](=O)[O-])cc2)C1.Cl				MIC	Mycobacterium tuberculosis		H37Rv	culture	>100 µg/mL

Again, the opening 7 rows:

{"compound": "N=c1c2ccccc2nc2n1CCCCCCC2", "dose": "12.5 µg/mL", "measure": "inhibition", "agent": "Mycobacterium tuberculosis", "method": "BACTEC", "strain": "H37Rv", "test": "culture", "result": "1%"}
{"compound": "Nc1ccc(C(=O)O)c(S)c1", "measure": "MIC", "agent": "Mycobacterium tuberculosis", "strain": "H37Rv", "test": "culture", "result": ">100 µg/mL"}
{"compound": "O=C(Nc1ccc2cc(S(=O)(=O)[O-])cc(S(=O)(=O)[O-])c2c1)c1ccccc1", "dose": "5 µg/mL", "cells": "Human amnion AV3 cells", "measure": "inhibition", "agent": "Herpes simplex virus", "method": "cytopathic effect", "test": "culture", "result": "15%"}
{"compound": "C#CC[C@@H](C(=O)N[C@H](/C=C/C(=O)OCC)C[C@@H]1CCNC1=O)n1cccc(NC(=O)c2cc(C)on2)c1=O", "cells": "H1-HELA", "measure": "EC50", "agent": "Rhinovirus", "method": "cytopathic effect / XTT", "strain": "Clinical isolate 15 (serotype 23)", "test": "culture", "result": "0.059 µM"}
{"compound": "Nc1ccc(C(=O)Nc2ccc3ccccc3c2)cc1", "measure": "MIC", "agent": "Mycobacterium tuberculosis", "strain": "H37Rv", "test": "culture", "result": ">100 µg/mL"}
{"compound": "COc1ccc(N2CCN(c3cncc(-c4ccccc4CO)n3)CC2)cc1OC", "protein": "UL97 kinase", "dose": "10 µM", "measure": "inhibition", "agent": "Cytomegalovirus", "test": "target", "result": ">15%"}
{"compound": "C1=NCCCCCCCN=Cc2ccccc2NCCNc2ccccc21", "measure": "MIC bound", "agent": "Mycobacterium tuberculosis", "method": "BACTEC", "strain": "H37Rv", "test": "culture", "result": ">12.5 µg/mL"}

A number after MIC or MFC names an inhibition level or a share of isolates. MIC bound comes from a single tested concentration. An empty or dashed field is not shown. ICn: concentration for n% inhibition. Lines come from different laboratories, so protocols vary. Inhibition is in % at the dose shown (toxicity tests: loss of growth or viability).